{"source": "patent US20180360953A1", "about": "(priority 2015, published 2018)", "tested_on": "Bacillus anthracis lethal toxin", "test": "i.p. alum-adsorbed vaccine with Alvelestat, lethal toxin in vitro macrophage toxicity assay", "settings": "Alvelestat 100 or 200 μM, Day 21", "data": [{"molecule": "Cc1c(-c2ccnn2C)cc(C(=O)NCc2ccc(S(C)(=O)=O)cn2)c(=O)n1-c1cccc(C(F)(F)F)c1", "note": "[Alvelestat, alvelestat]", "values": [{"measurement": "Serum anti-PA neutralizing Ab responses", "value": "enhanced neutralizing activity"}]}]}
